From PubChem BioAssay AID588742 (Southern Research Specialized Biocontainment Screening …, 2011) come the findings set out here.

The list shows a part of the results, in another mix than the full data. Potency and affinity values are given separately. Active and inactive are the calls of the source. No rule for the calls is given here.

This experiment in a line: Vero cell cytotoxicity, cytotoxicity control for flavivirus capping enzyme inhibitors (AID 588742). The note with it: Vero cells viability, cytotoxicity counter-screen; at 40 µM (top of the series). In general terms: Counterscreens check selectivity or assay interference.
Broadly, the viability is a read-out of living cells in per cent, often relative to untreated cells. Consider `O=C(O)c1cccc(Nc2c([N+](=O)[O-])cc([N+](=O)[O-])cc2[N+](=O)[O-])c1`, for which the viability was inactive: 110%.
